We go through one substance from patent US20050143392A1, “Chrysogenazine obtained from fungus Penicillium chrysogenum having antibacterial activity” (Council of Scientific & Industrial Research, priority 2003, published 2005).

This assay deals with Vibrio cholerae MCM B-322. Briefly: Antibacterial activity, simple disc diffusion (agar diffusion) technique. As to conditions: agar plates; chrysogenazine 5-30 mcg/disc; penicillin 10 units/disc, amphicillin 10 mcg/disc, streptomycin 10 mcg/disc. Background: A growth-free zone around the sample is the usual read-out of agar diffusion tests.

The zone of inhibition is the extent of the growth-free halo in a diffusion test. A higher zone of inhibition goes with wide suppression of growth. In the case of penicillin, the zone of inhibition turned out to be 0 mm.
